Genome-wide point mutation profile of HIV-1: RT

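Seven fragments of pNL4-3 were mutated by error-prone PCR, and each virus pool was passaged in CEM T cells. The RC index is the frequency of a change after passage round 2 divided by its frequency in the plasmid library.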

Protein: RT of HIV-1 NL4-3, numbered from its first residue.
Effects on overlapping genes or RNA elements are not listed.

A higher RC index is a better tolerated change; approximate classes are lethal up to 0.1, attenuated to 0.2, tolerated above. A change reads original residue, position, new residue. Since each clone held several changes (about five per kb), neutral changes can read low. The authors read an index above 1 as above wild type (1.9% of all changes in the genome). Nucleotide positions follow pNL4-3.

| change | base | RC index |
|---|---|---|
| M16I | G2597T | 0.228 |
| P226L | C3226T | 0.0568 |
| F61S | T2731C | 0.0795 |
| Y427H | T3828C | 0.0586 |
| S163R | C3038A | 0.0990 |
| T216I | C3196T | 0.0635 |
| E138V | A2962T | 0.0200 |
| I195K | T3133A | 0.0424 |
| E203V | A3157T | 0.0702 |
| K22E | A2613G | 0.0592 |
| A98S | G2841T | 0.0886 |
| Q23L | A2617T | 0.0579 |
| K219E | A3204G | 0.0595 |
| F416Y | T3796A | 0.0504 |
| P236H | C3256A | 0.0552 |
| K323E | A3516G | 0.0370 |
| N494K | C4031G | 0.0279 |
| K126E | A2925G | 0.0252 |
| N494D | A4029G | 0.0432 |
| T128I | C2932T | 0.0366 |
| F61L | T2732A | 0.0172 |
| N306D | A3465G | 0.0340 |
| T131I | C2941T | 0.0614 |
| P294R | C3430G | 0.335 |
| E300K | G3447A | 0.0850 |
| G141W | G2970T | 0.170 |
| A502V | C4054T | 0.192 |
| V60A | T2728C | 0.0647 |
| S163I | G3037T | 0.0626 |
| V548I | G4191A | 0.176 |
| L486W | T4006G | 0.106 |
| K103E | A2856G | 0.0436 |
| K46R | A2686G | 0.0409 |
| W535R | T4152A | 0.0477 |
| E28K | G2631A | 0.278 |
| S3C | A2556T | 0.0768 |
| K13R | A2587G | 0.115 |
| K395M | A3733T | 0.0348 |
| N363I | A3637T | 0.0213 |
| R78I | G2782T | 0.0454 |
| K385N | G3704C | 0.190 |
| E305G | A3463G | 0.0520 |
| E44K | G2679A | 0.864 |
| L484Q | T4000A | 0.0398 |
| E492K | G4023A | 2.22 |
| K366I | A3646T | 0.124 |
| Q547K | C4188A | 0.306 |
| A538E | C4162A | 0.138 |
| Q407K | C3768A | 0.0632 |
| N447D | A3888G | 0.0164 |
| K154I | A3010T | 0.0169 |
| A62S | G2733T | 0.175 |
| D110E | T2879A | 0.0362 |
| T131N | C2941A | 0.134 |
| E413G | A3787G | 0.0438 |
| H96Y | C2835T | 0.0317 |
| K122N | A2915C | 0.0229 |
| L551M | T4200A | 0.0619 |
| G285V | G3403T | 0.0666 |
| T200A | A3147G | 0.0860 |
| I94T | T2830C | 0.0261 |
| W402C | G3755C | 0.215 |
| C38R | T2661C | 0.0527 |
| K238N | A3263T | 0.0113 |
| E478D | G3983T | 0.0864 |
| G456E | G3916A | 0.401 |
| D113N | G2886A | 0.114 |
| K173R | A3067G | 0.0394 |
| K32N | A2645T | 0.0486 |
| A62V | C2734T | 0.421 |
| K530I | A4138T | 0.0811 |
| K347R | A3589G | 0.0386 |
| F160I | T3027A | 0.0634 |
| D86N | G2805A | 0.664 |
| M357I | G3620A | 0.960 |
| L303P | T3457C | 0.0218 |
| F87C | T2809G | 0.150 |
| Q258K | C3321A | 0.0745 |
| Y339F | A3565T | 0.0369 |
| G335V | G3553T | 0.210 |
| D17G | A2599G | 0.103 |
| P1H | C2551A | 0.124 |
| I542S | T4174G | 0.137 |
| G285E | G3403A | 0.329 |
| T477N | C3979A | 0.107 |
| L282F | C3393T | 0.0610 |
| I556T | T4216C | 0.0432 |
| L289Q | T3415A | 0.0193 |
| F61Y | T2731A | 0.0324 |

From the data files of Al-Mawsawi et al. 2014, doi:10.1186/s12977-014-0124-6.